PubChem BioAssay AID624099 | ICCB-Longwood, 2012
Purpose: 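Knock-downs relieving repression by E2 of an HPV18 LCR luciferase reporter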 (primary screen). Cells: human C33A cervical carcinoma cells (HPV-negative) stably expressing BPV1 E2 and an HPV18 LCR luciferase reporter. Knock-down reagent: siRNA pool against human genes, 40 nM. Time to read-out: 72 h. Detection: 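Per-well luciferase luminescence, z-scored on each plate against the plate mean and SD with control wells left out, then averaged across three replicate plates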. Direction: mean z-score and z-score: higher = stronger reporter signal, weaker E2 silencing. Active means: 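Hit if mean z-score reaches 2 and two or more of three replicate z-scores also reach 2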.
The deposit covers about 21,000 reagents; shown is a random part of them. 497 of them (2.4%) count as active. 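Higher z means weaker E2 silencing; only reporter increases were scored, and knock-downs that hurt cell survival may mask genuine repressor factors.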

What is on record for DENND1A (DENN domain containing 1A)?
mean z-score: 0.34; z-score, replicate A: 0.64; z-score, replicate B: 0.31; z-score, replicate C: 0.07; Call: inactive

Which result is listed for KIAA0753?
mean z-score: 0.3; z-score, replicate A: 0.5; z-score, replicate B: 0.11; z-score, replicate C: 0.3; Call: inactive

With PCOLCE (procollagen C-endopeptidase enhancer), what was measured?
mean z-score: 2.11; z-score, replicate A: 1.92; z-score, replicate B: 2; z-score, replicate C: 2.42; Call: active

Which result is listed for LOC391809 (retired record)?
mean z-score: -0.66; z-score, replicate A: -0.54; z-score, replicate B: -0.9; z-score, replicate C: -0.54; Call: inactive

For LMO3 (LIM domain only 3), how do the results read?
mean z-score: 0.38; z-score, replicate A: 0.27; z-score, replicate B: 0.46; z-score, replicate C: 0.42; Call: inactive

What is on record for RETREG3 (reticulophagy regulator family member 3)?
mean z-score: -0.23; z-score, replicate A: -0.2; z-score, replicate B: -0.26; z-score, replicate C: -0.22; Call: inactive

For LOC285110 (retired record), what was measured?
mean z-score: -0.25; z-score, replicate A: -0.01; z-score, replicate B: -0.37; z-score, replicate C: -0.37; Call: inactive

How did the screen score CFAP184 (cilia and flagella associated protein 184)?
mean z-score: -0.25; z-score, replicate A: -0.34; z-score, replicate B: 0.02; z-score, replicate C: -0.42; Call: inactive

What is on record for LIMD2 (LIM domain containing 2)?
mean z-score: -0.56; z-score, replicate A: -0.98; z-score, replicate B: -0.54; z-score, replicate C: -0.14; Call: inactive

With ZNF475 (zinc finger protein 475), how do the results read?
mean z-score: -0.95; z-score, replicate A: -0.91; z-score, replicate B: -0.75; z-score, replicate C: -1.18; Call: inactive

How did the screen score NFATC1 (nuclear factor of activated T cells 1)?
mean z-score: -1.05; z-score, replicate A: -1.18; z-score, replicate B: -0.91; z-score, replicate C: -1.05; Call: inactive

For CNEP1R1 (CTD nuclear envelope phosphatase 1 regulatory subunit 1), what does the deposit list?
mean z-score: 0.91; z-score, replicate A: 0.8; z-score, replicate B: 0.57; z-score, replicate C: 1.35; Call: inactive

With BRAT1 (BRCA1 associated ATM activator 1), how do the results read?
mean z-score: -0.15; z-score, replicate A: -0.42; z-score, replicate B: -0.15; z-score, replicate C: 0.13; Call: inactive

For OSTC (oligosaccharyltransferase complex non-catalytic subunit), what does the deposit list?
mean z-score: 1.04; z-score, replicate A: 1.56; z-score, replicate B: 1.12; z-score, replicate C: 0.42; Call: inactive
